Anti-infective test results gathered from many reports (values: NIAID ChemDB through PubChem).

Shared fields: target-level tests; species: HIV-1; protein: Reverse transcriptase; endpoint: inhibition

An empty or dashed field is not shown. Percent inhibition refers to the dose given; in toxicity tests it is the harm to the cells. Lines come from different laboratories, so protocols vary.

smiles	dose	strain or isolate	mutations	result
O=S(=O)(O)OCC1OC2OC3C(COS(=O)(=O)O)OC(OC4C(COS(=O)(=O)O)OC(OC5C(COS(=O)(=O)O)OC(OC6C(COS(=O)(=O)O)OC(OC7C(COS(=O)(=O)O)OC(OC1C(OS(=O)(=O)O)C2OS(=O)(=O)O)C(OS(=O)(=O)O)C7OS(=O)(=O)O)C(OS(=O)(=O)O)C6OS(=O)(=O)O)C(OS(=O)(=O)O)C5OS(=O)(=O)O)C(OS(=O)(=O)O)C4OS(=O)(=O)O)C(OS(=O)(=O)O)C3OS(=O)(=O)O	25 µg/mL	BRU		0%
CCCCCCCCCCCCCCCCOCC(COC(=O)CCC(=O)OC1CC(COP(=O)(O)OC2CC(COP(=O)(O)OC3CC(CO)OC3n3cnc4c(N)ncnc43)OC2n2cnc3c(N)ncnc32)OC1n1cnc2c(N)ncnc21)OCCCCCCCCCCCCCCCC	300 µM			77%
CN1C(=O)c2cc(-n3ccnc3)nnc2N(C2CC2)c2ccccc21	330 µM			23%
CCCCCCCCCCCCCCCC(=O)NC1C(COP(=O)(O)OC2CC(COP(=O)(O)OC3CC(CO)OC3n3cnc4c(N)ncnc43)OC2n2cnc3c(N)ncnc32)OC(n2cnc3c(N)ncnc32)C1O	100 µM			54%
S=C(NCCc1ccccn1)Nc1cccnn1	3.3 µM			6%
Nc1ncnc2c1ncn2[C@@H]1O[C@H](COP(=O)([O-])O)[C@@H](O)[C@H]1OP(=O)([O-])OC[C@H]1O[C@@H](n2cnc3c(N)ncnc32)[C@H](OP(=O)([O-])OC[C@@H]2C[C@@H](O)[C@H](n3cnc4c(N)ncnc43)O2)[C@@H]1O	10 µM	IIIB		19%
CCCN1C(=O)c2cc(Cl)nnc2N(C2CC2)c2ccccc21	33 µM			24%
COC(=O)C(CNCc1cn([C@H]2C[C@H](n3cc(C)c(=O)[nH]c3=O)O[C@@H]2CO)nn1)C(O)c1cc(Cl)ccc1OCc1ccccc1	10 µM			10.3%
CCCCCCCCCCCCCCCC(=O)NC1C(COP(=O)(O)OC2C(O)C(COP(=O)(O)OC3CC(CO)OC3n3cnc4c(N)ncnc43)OC2n2cnc3c(N)ncnc32)OC(n2cnc3c(N)ncnc32)C1O	100 µM			78%
CCCN1C(=O)c2ccnnc2N(C2CC2)c2ccc(C)cc21	330 µM			39%
Nc1ncnc2c1ncn2C1OC(COP(=O)(O)OC2C(O)C(COP(=O)(O)OC3CC(CO)OC3n3cnc4c(N)ncnc43)OC2n2cnc3c(N)ncnc32)CC1O	10 µM	IIIB		16%
COc1cc(-c2cc(=O)c3c(O)c(OC)c(O)cc3o2)cc(O)c1OC	200 µg/mL			25.5%
CCCCOC(=O)C(CNCc1cn([C@H]2C[C@H](n3cc(C)c(=O)[nH]c3=O)O[C@@H]2CO)nn1)C(O)c1cc(Br)ccc1O	10 µM			26.3%
CCCN1c2ccc(C)cc2N(CC)C(=O)c2ccnnc21	33 µM			30%
Nc1ncnc2c1ncn2[C@@H]1O[C@H](COP(=O)([O-])O[C@@H]2C[C@@H](COP(=O)([O-])O[C@@H]3C[C@@H](COP(=O)([O-])O)O[C@H]3n3cnc4c(N)ncnc43)O[C@H]2n2cnc3c(N)ncnc32)C[C@H]1O	10 µM	IIIB		28%
CCN1c2ncccc2C(=O)Nc2c(COCc3ccccc3)cc(=O)[nH]c21	83 µM	WT		1%
COC(=O)/C(=C/c1cc(Br)ccc1OCc1ccccc1)CNCc1cn([C@H]2C[C@H](n3cc(C)c(=O)[nH]c3=O)O[C@@H]2CO)nn1	10 µM			-8.3%
C[Si](O)(O[Si](C)(CCCn1cnc2c(N)ncnc21)c1ccccc1)c1ccccc1	400 µM			30%
Cc1cccc(C)c1OCC(=O)N[C@@H](Cc1ccccc1)[C@H](O)[C@@H](O)[C@@H]1CCCN1C(=O)COc1c(C)cccc1C	0.0000001 µM			74%
Nc1ncnc2c1ncn2C1OC(COP(=O)(O)OC2CC(COP(=O)(O)OC3CC(CO)OC3n3cnc4c(N)ncnc43)OC2n2cnc3c(N)ncnc32)CC1O	10 µM	IIIB		22%
S=C(NCCc1ccccn1)Nc1ccncn1	330 µM			100%
COc1c(O)cc2oc(-c3ccc(O)cc3)cc(=O)c2c1O	200 µg/mL			57.9%
CCCCN1C(=O)c2cc(Cl)nnc2N(C2CC2)c2ccccc21	330 µM			11%
CCN1c2ncccc2C(=O)Nc2c(C=O)cc(-c3cccc(OC)c3)nc21	71 µM	RT		1%
Nc1ncnc2c1ncn2[C@@H]1O[C@H](COP(=O)([O-])O[C@@H]2C[C@@H](COP(=O)([O-])O)O[C@H]2n2cnc3c(N)ncnc32)[C@@H](O)[C@H]1OP(=O)([O-])OC[C@@H]1C[C@@H](O)[C@H](n2cnc3c(N)ncnc32)O1	10 µM	IIIB		20%
CCN1c2ncccc2C(=O)Nc2c(Cc3ccccc3)cc(-c3cccc(OC)c3)nc21	15 µM		RT-Y181C	1%
Cc1c(C)c2c(c(C)c1OC(=O)OC1CC(COP(=O)(O)OC3CC(COP(=O)(O)OC4CC(CO)OC4n4cnc5c(N)ncnc54)OC3n3cnc4c(N)ncnc43)OC1n1cnc3c(N)ncnc31)CCC(C)(CCCC(C)CCCC(C)CCCC(C)C)O2	300 µM			52%
CCN1c2ncccc2C(=O)Nc2c(Cc3ccccc3)cc(=O)[nH]c21	42 µM		RT-Y181C	1%
Nc1ncnc2c1ncn2C1OC(COP(=O)(O)OC2CC(COP(=O)(O)OC3C(O)C(CO)OC3n3cnc4c(N)ncnc43)OC2n2cnc3c(N)ncnc32)CC1O	10 µM	IIIB		19%
CCN1c2ncccc2C(=O)Nc2c(COc3ccccc3)cc(OC)nc21	44 µM	WT		1%
CCCCCCCCCCCCCCCC(=O)OCC(COC(=O)CCC(=O)OC1CC(COP(=O)(O)OC2CC(COP(=O)(O)OC3CC(CO)OC3n3cnc4c(N)ncnc43)OC2n2cnc3c(N)ncnc32)OC1n1cnc2c(N)ncnc21)OC(=O)CCCCCCCCCCCCCCC	300 µM			78%
CN1C(=O)c2ccnnc2N(C2CC2)c2ccccc21	33 µM			26%
C=C1C(=O)O[C@@H]2C[C@@H]3[C@]4(CC[C@]5(C)[C@@H]([C@H](C)CC/C=C(\C)C=O)CC[C@@]35C)C[C@]4(CCC(=O)OC)[C@H]12	200 µg/mL			71.1%
CCCCOC(=O)C(CNCc1cn([C@H]2C[C@H](n3cc(C)c(=O)[nH]c3=O)O[C@@H]2CO)nn1)C(O)c1cccc(OCC)c1O	10 µM			7.8%
CC1=C(CC/C(C)=C/CC/C(C)=C/CCC2=CCOC2=O)C(C)(C)CCC1=O	1000 µg/mL			81%

The first 4 rows once more:

O=S(=O)(O)OCC1OC2OC3C(COS(=O)(=O)O)OC(OC4C(COS(=O)(=O)O)OC(OC5C(COS(=O)(=O)O)OC(OC6C(COS(=O)(=O)O)OC(OC7C(COS(=O)(=O)O)OC(OC1C(OS(=O)(=O)O)C2OS(=O)(=O)O)C(OS(=O)(=O)O)C7OS(=O)(=O)O)C(OS(=O)(=O)O)C6OS(=O)(=O)O)C(OS(=O)(=O)O)C5OS(=O)(=O)O)C(OS(=O)(=O)O)C4OS(=O)(=O)O)C(OS(=O)(=O)O)C3OS(=O)(=O)O ; dose: 25 µg/mL ; strain or isolate: BRU ; result: 0%
CCCCCCCCCCCCCCCCOCC(COC(=O)CCC(=O)OC1CC(COP(=O)(O)OC2CC(COP(=O)(O)OC3CC(CO)OC3n3cnc4c(N)ncnc43)OC2n2cnc3c(N)ncnc32)OC1n1cnc2c(N)ncnc21)OCCCCCCCCCCCCCCCC ; dose: 300 µM ; result: 77%
CN1C(=O)c2cc(-n3ccnc3)nnc2N(C2CC2)c2ccccc21 ; dose: 330 µM ; result: 23%
CCCCCCCCCCCCCCCC(=O)NC1C(COP(=O)(O)OC2CC(COP(=O)(O)OC3CC(CO)OC3n3cnc4c(N)ncnc43)OC2n2cnc3c(N)ncnc32)OC(n2cnc3c(N)ncnc32)C1O ; dose: 100 µM ; result: 54%